Anti-infective test results gathered from many reports (values: NIAID ChemDB through PubChem).

Common to all: growth or infection tests; agent: Reovirus; strain or isolate: TYPE 1

Blank or dashed fields: not listed here. ECn is the concentration giving n% inhibition of infection, replication or growth. Rows are shuffled and stem from different studies.

| structure | cell line | read by | measure | value |
|---|---|---|---|---|
| COc1cc2c(cc1OC)[C@@H]1C(N)CSCON1CC2 | VERO | cytopathic effect | EC50 | 0.2 µg/mL |
| Nc1ncnc2c1ncn2[C@H]1C[C@@H](O)[C@H](O)[C@@H]1O | VERO | - | EC50 | 7 µg/mL |
| CC1(C)[C@@H](CCO)C[C@H]1n1cnc2c(=O)[nH]c(N)nc21 | VERO | cytopathic effect | EC50 | >400 µg/mL |
| Nc1nc(Cl)c2ccn([C@H]3CO[C@@H](CO)C3)c2n1 | VERO | cytopathic effect | EC50 | >400 µg/mL |
| c1ccc(C2=Nn3c(nnc3-c3cn(-c4ccccc4)nc3-c3ccccc3)SC2)cc1 | VERO | cytopathic effect | EC50 | >16 µg/mL |
| CC1(CO)CCC(Cn2nnc3c(=O)[nH]cnc32)C1(C)C | VERO | cytopathic effect | EC50 | >400 µg/mL |
| Nc1ncnc2c1ncn2[C@H]1C[C@H](O)[C@@H](C=O)O1 | VERO | cytopathic effect | EC50 | >200 µg/mL |
| CC1(C)[C@@H](CO)CC[C@@]1(C)Cn1nnc2c(=O)[nH]cnc21 | VERO | cytopathic effect | EC50 | >400 µg/mL |
| NC1CSCON2CCc3c([nH]c4ccccc34)[C@H]12 | VERO | cytopathic effect | EC50 | 0.4 µg/mL |
| CC1(CO)CCC(Cn2cnc3c(N)nc(N)nc32)C1(C)C | VERO | cytopathic effect | EC50 | >40 µg/mL |
| Cc1cn([C@H]2O[C@H](CO)[C@@H](N=[N+]=[N-])[C@H]2F)c(=O)nc1N | VERO B | cytopathic effect | EC50 | >400 µg/mL |
| CC(=O)OCCOCN1C(C)=CC(N)=[N+](c2ccccc2)S1(=O)=O | VERO | - | EC50 | >400 µg/mL |
| CC1(C)[C@@H](CO)CC[C@@]1(C)Cn1cc(I)c(=O)[nH]c1=O | VERO | cytopathic effect | EC50 | >400 µg/mL |
| Nc1ccn([C@@H]2C[C@H](CO)[C@@H](O)[C@H]2O)c(=O)n1 | VERO | cytopathic effect | EC50 | 0.7 µg/mL |
| CCn1nc(-c2ccc(Cn3ccc4ccccc43)cc2)nc1C | - | - | MIC | >80 µg/mL |
| N#Cc1cncc([C@H]2O[C@H](CO)[C@@H](O)[C@@H]2O)c1 | VERO | cytopathic effect | EC50 | ≥100 µg/mL |
| COc1ccc(-n2c(Cc3nc4n(n3)CCCC4)n[nH]c2=S)cc1 | - | - | MIC | >400 µg/mL |
| Cc1cccn2c(C3OCCS3)cnc12 | VERO | - | EC50 | >1000 µM |
| NC1=CC(c2ccccc2)=Nn2c(nnc2-c2cn(-c3ccccc3)nc2-c2ccccc2)S1 | VERO | cytopathic effect | EC50 | >16 µg/mL |
| CCOC(=O)C1=CN(COCCO)S(=O)(=O)NC1=O | VERO | - | EC50 | >400 µg/mL |
| CC(=O)Nn1c(-c2cn(-c3ccccc3)nc2-c2ccccc2)n[nH]c1=S | VERO | cytopathic effect | EC50 | >80 µg/mL |
| CC=NC(=N)c1nc(-c2cccc(C)c2)n(COCCO)n1 | VERO | cytopathic effect | EC50 | 10 µg/mL |
| CC(=O)OCCOCN1C=CC(=O)N(COCCO)S1(=O)=O | VERO | - | EC50 | >400 µg/mL |
| OC[C@H]1CC(n2cnc3c(NC4CC4)ncnc32)C[C@@H]1CO | VERO | - | EC50 | >100 µg/mL |
| Cc1cccn2c(C3SCCS3)cnc12 | VERO | - | EC50 | >1000 µM |
| Cc1nc(C(C)C)c2[nH]c(=S)[nH]c(=O)n12 | VERO | cytopathic effect | EC50 | >200 µg/mL |
| Nc1ncnc2c1ncn2[C@@H]1C=C(CO)[C@@H](O)C1 | VERO | cytopathic effect | EC50 | 20 µg/mL |
| CO[C@H](CO)[C@@H](O)CCn1cc(C)c(=O)[nH]c1=O | VERO | cytopathic effect | EC50 | >400 µg/mL |
| O=c1[nH]c(=O)n([C@@H]2C[C@H](CO)C[C@H]2CO)cc1I | VERO | - | EC50 | >100 µg/mL |
| Nc1ncnc2c1ncn2CCCC(O)CF | VERO | cytopathic effect | EC50 | >400 µg/mL |
| Cc1nn2c(-c3cn(-c4ccccc4)nc3-c3ccccc3)nnc2s1 | VERO | cytopathic effect | EC50 | >3.2 µg/mL |
| Nc1ncnc2c1ncn2[C@@H]1C=C(CO)[C@@H](O)[C@H]1O | VERO | cytopathic effect | EC50 | 0.7 µg/mL |
| CO[C@H](CO)[C@@H](O)CCn1cnc2c(N)ncnc21 | VERO | cytopathic effect | EC50 | >400 µg/mL |
| Nc1nc2c(ncn2CCCC(O)CF)c(=O)[nH]1 | VERO | cytopathic effect | EC50 | >400 µg/mL |
| C=C(N=CC)c1nc(-c2cccc(C)c2)n([C@@H]2O[C@H](CO)[C@@H](O)[C@H]2O)n1 | VERO | cytopathic effect | EC50 | >40 µg/mL |
| CCC(Sc1ncnc2c1cnn2COCCO)C(N)=O | VERO | cytopathic effect | EC50 | >400 µg/mL |
| CC1(CO)CCC(Cn2ccc(=O)[nH]c2=O)C1(C)C | VERO | cytopathic effect | EC50 | >400 µg/mL |
| OC[C@H]1O[C@@H](c2cc(Cl)c(F)cc2F)C[C@@H]1O | VERO | cytopathic effect | EC50 | >80 µg/mL |
| Nc1ncnc2c1ccn2[C@@H]1C[C@H](O)[C@@H](O)[C@H]1O | VERO | - | EC50 | >0.7 µg/mL |
| CO[C@H](CO)[C@@H](O)CCn1ccc(N)nc1=O | VERO | cytopathic effect | EC50 | >400 µg/mL |
| CC=NC(=N)c1nc(-c2ccc(C)cc2)n(Cc2ccccc2)n1 | VERO | cytopathic effect | EC50 | 7 µg/mL |
| CON=C[C@H]1O[C@@H](n2cnc3c(N)ncnc32)[C@H](O)[C@@H]1O | VERO | cytopathic effect | EC50 | >100 µg/mL |
| CC(C)CS[C@H]1C[C@@H](n2cnc3c(N)ncnc32)[C@H](O)[C@@H]1O | HeLa | cytopathic effect | EC50 | >80 µg/mL |
| CC1(C)[C@@H](CCO)C[C@H]1n1nnc2c(=O)[nH]cnc21 | VERO | cytopathic effect | EC50 | 150 µg/mL |
| N#CC1=CN(COCCO)S(=O)(=O)N=C1N | VERO | - | EC50 | >400 µg/mL |
| Nc1nccc2c1ncn2[C@@H]1C[C@H](CO)[C@@H](O)[C@H]1O | - | - | MIC | 1 µg/mL |
| Nc1ncnc2c1ncn2[C@@H]1C=C(CO)[C@@H](O)[C@@H]1O | VERO | cytopathic effect | EC50 | 70 µg/mL |
| OC[C@H]1O[C@H](c2cncc(Br)c2)[C@@H](O)[C@@H]1O | VERO | cytopathic effect | EC50 | ≥100 µg/mL |
| Cc1cn([C@H]2OC[C@@H](CO)C2F)c(=O)[nH]c1=O | VERO | cytopathic effect | EC50 | >80 µg/mL |
| CCn1nc(CC(=O)N/N=C/c2ccco2)nc1C | - | - | MIC | >80 µg/mL |
| CON1CCc2c([nH]c3ccccc23)[C@@H]1[C@@H](N)CSC | VERO | cytopathic effect | EC50 | >40 µg/mL |
| CC1(C)[C@@H](CCO)C[C@H]1n1cnc2c(N)ncnc21 | VERO | cytopathic effect | EC50 | >400 µg/mL |
| CC1(CO)CCC(Cn2cnc3c(Cl)nc(N)nc32)C1(C)C | VERO | cytopathic effect | EC50 | >200 µg/mL |
| Nc1nc2c(ncn2[C@H]2OC[C@@H](CO)C2O)c(=O)[nH]1 | VERO | cytopathic effect | EC50 | >16 µg/mL |
| CC1(CO)CCC(Cn2nnc3c(N)nc(N)nc32)C1(C)C | VERO | cytopathic effect | EC50 | >200 µg/mL |
| Cc1ccn2c(C(SCCc3ccccc3)SCCc3ccccc3)cnc2c1 | VERO | - | EC50 | >1000 µM |
| Nc1nccc2c1ncn2[C@@H]1C[C@H](CO)[C@@H](O)[C@H]1O | VERO | cytopathic effect | EC50 | 1 µg/mL |
| S=c1[nH]nc(Cc2nc3n(n2)CCCCC3)o1 | - | - | MIC | >80 µg/mL |
| Nc1ncnc2c1ncn2[C@H]1C[C@@H](CO)[C@H](O)[C@@H]1O | VERO | cytopathic effect | EC50 | >400 µg/mL |
| O=c1[nH]cnc2c1ncn2C1C[C@H](CO)[C@@H](CO)C1 | VERO | - | EC50 | >100 µg/mL |
| Nc1ncnc2c1ncn2[C@@H]1C=C[C@@H](O)[C@H]1O | - | - | MIC | 0.7 µg/mL |
| Nc1ncnc2c1ncn2C[C@H](O)CO | - | - | MIC | 240 µg/mL |
| CC1(C)[C@@H](CO)CC[C@@]1(C)Cn1nnc2c(Cl)ncnc21 | VERO | cytopathic effect | EC50 | >400 µg/mL |
| [N-]=[N+]=NC(CBr)c1cc([C@H]2C[C@H](O)[C@@H](CO)O2)c(F)cc1F | VERO | cytopathic effect | EC50 | >16 µg/mL |
| C=C(N=CC)c1nc(-c2ccccc2)n(C2O[C@H](CO)[C@@H](O)[C@H](O)[C@H]2O)n1 | VERO | cytopathic effect | EC50 | >200 µg/mL |
| Nc1ncnc2c1ncn2[C@@H]1O[C@H](CO)[C@](O)(C(F)(F)F)[C@H]1O | VERO | cytopathic effect | EC50 | >200 µg/mL |
| Nc1ncnc2c1ncn2C[C@H](O)CO | VERO | cytopathic effect | EC50 | 70 µg/mL |
| Nc1ncnc2c1ncn2[C@@H]1O[C@H](/C=N/O)[C@@H](O)[C@@H]1O | VERO | cytopathic effect | EC50 | >40 µg/mL |
| CC(=O)Nc1nc2c(CC(O)CO)ncn2c(=O)[nH]1 | VERO | cytopathic effect | EC50 | >200 µg/mL |
| Cc1cn([C@@H]2OC[C@H](CO)[C@H]2N=[N+]=[N-])c(=O)[nH]c1=O | VERO | cytopathic effect | EC50 | >80 µg/mL |
| O=c1ccn([C@@H]2O[C@H](CO)[C@](O)(C(F)(F)F)[C@H]2O)c(=O)[nH]1 | VERO | cytopathic effect | EC50 | >400 µg/mL |
| CC=NC(=N)c1nc(-c2ccccc2)n(Cc2ccccc2)n1 | VERO | cytopathic effect | EC50 | >4 µg/mL |
| Nc1nc(Cl)c2ncn([C@H]3CO[C@@H](CO)C3)c2n1 | VERO | cytopathic effect | EC50 | >400 µg/mL |
| CC1(CO)CCC(Cn2nnc3c(Cl)ncnc32)C1(C)C | VERO | cytopathic effect | EC50 | >40 µg/mL |
| Nc1ncnc2c1ncn2[C@@H]1O[C@H](C=NO)[C@@H](O)[C@H]1O | VERO | cytopathic effect | EC50 | >1 µg/mL |
| CCC(Sc1ncnc2c1cnn2COCC(O)CO)C(N)=O | VERO | cytopathic effect | EC50 | >400 µg/mL |
| Nc1nccc2c1ncn2[C@@H]1C[C@H](CO)[C@@H](O)[C@H]1O | VERO | cytopathic effect | EC50 | 4 µg/mL |
| N#Cc1cncc([C@H]2O[C@H](CO)[C@H](O)[C@@H]2O)c1 | VERO | cytopathic effect | EC50 | ≥100 µg/mL |
| C=CCc1nc(C)n2c(=O)[nH]c(NC(C)=O)nc12 | VERO | cytopathic effect | EC50 | >200 µg/mL |
| O=C1C=CN(COCCO)S(=O)(=O)N1COCCO | VERO | - | EC50 | >400 µg/mL |
| CC(Sc1ncnc2c1cnn2COCCO)C(N)=O | VERO | cytopathic effect | EC50 | >400 µg/mL |
| NC(=O)c1cncc([C@H]2O[C@H](CO)[C@H](O)[C@@H]2O)c1 | VERO | cytopathic effect | EC50 | ≥100 µg/mL |
| CC=NC(=N)c1nc(-c2cccc(OC)c2)n(Cc2ccccc2)n1 | VERO | cytopathic effect | EC50 | >10 µg/mL |

The last 7 rows once more:

structure,cell line,read by,measure,value
Nc1nccc2c1ncn2[C@@H]1C[C@H](CO)[C@@H](O)[C@H]1O,VERO,cytopathic effect,EC50,4 µg/mL
N#Cc1cncc([C@H]2O[C@H](CO)[C@H](O)[C@@H]2O)c1,VERO,cytopathic effect,EC50,≥100 µg/mL
C=CCc1nc(C)n2c(=O)[nH]c(NC(C)=O)nc12,VERO,cytopathic effect,EC50,>200 µg/mL
O=C1C=CN(COCCO)S(=O)(=O)N1COCCO,VERO,-,EC50,>400 µg/mL
CC(Sc1ncnc2c1cnn2COCCO)C(N)=O,VERO,cytopathic effect,EC50,>400 µg/mL
NC(=O)c1cncc([C@H]2O[C@H](CO)[C@H](O)[C@@H]2O)c1,VERO,cytopathic effect,EC50,≥100 µg/mL
CC=NC(=N)c1nc(-c2cccc(OC)c2)n(Cc2ccccc2)n1,VERO,cytopathic effect,EC50,>10 µg/mL